How the values were obtained:
[1] = Inhibition of reverse transcriptase L100I mutant in HIV-1 3B infected in human MT4 cells assessed as reduction in virus-induced cytopathic effect incubated for 5 days by MTT assay
[2] = Inhibition of reverse transcriptase K103N mutant in HIV-1 3B infected in human MT4 cells assessed as reduction in virus-induced cytopathic effect incubated for 5 days by MTT assay
[3] = Inhibition of reverse transcriptase Y188L mutant in HIV-1 3B infected in human MT4 cells assessed as reduction in virus-induced cytopathic effect incubated for 5 days by MTT assay
[4] = Inhibition of reverse transcriptase E138K mutant in HIV-1 3B infected in human MT4 cells assessed as reduction in virus-induced cytopathic effect incubated for 5 days by MTT assay

## Cc1cc(C#N)cc(C)c1Oc1nc(Nc2ccc(C#N)cc2)nc(N)c1Br
[1]
  EC50: 9.2 nM
[2]
  EC50: 2.3 nM
[3]
  EC50: 16 nM
[4]
  EC50: 18 nM
